Source: US9221875B2, “Amphiphilic peptides for treatment of keratitis” (Agency for Science, Technology and Research, priority 2013, dated 2015)
Peptide text beside a SMILES is read from it.

System: 5 microorganisms tested (S. epidermidis, S. aureus, E. coli, P. aeruginosa, C. albicans)
Type: cell-based
Description: Red blood cells suspension incubated with PBS was used as negative control.

**Q.** For `CC(C)[C@H](N)C(=O)N[C@@H](CCCNC(=N)N)C(=O)N[C@H](C(=O)N[C@@H](CCCCN)C(=O)N[C@H](C(=O)N[C@@H](CCCNC(=N)N)C(=O)N[C@H](C(=O)N[C@@H](CCCCN)C(N)=O)C(C)C)C(C)C)C(C)C` [(VRVK)2-NH2] (H-VRVKVRVK-NH2; N-terminus assumed), which “SI, calculated as 2500 divided by 250 mg L^−1” value (footnote d) is on record?
**A.** >10^d

**Q.** Polymyxin B [reference compound] was tested. Which “SI, selectivity index (HC10 / GM)” value (rat red blood cells) did it give?
**A.** >60.4
